PMC9585585, “Discovery of Small-Molecule Allosteric Inhibitors of PfATC as Antimalarials” (Journal of the American Chemical Society, 2022)

Protein sequences, listed by entry. Tags and fused reporters are not part of them. Residues count along the entry.
UniProt A0A5K1K910, 37-375 limits assumed: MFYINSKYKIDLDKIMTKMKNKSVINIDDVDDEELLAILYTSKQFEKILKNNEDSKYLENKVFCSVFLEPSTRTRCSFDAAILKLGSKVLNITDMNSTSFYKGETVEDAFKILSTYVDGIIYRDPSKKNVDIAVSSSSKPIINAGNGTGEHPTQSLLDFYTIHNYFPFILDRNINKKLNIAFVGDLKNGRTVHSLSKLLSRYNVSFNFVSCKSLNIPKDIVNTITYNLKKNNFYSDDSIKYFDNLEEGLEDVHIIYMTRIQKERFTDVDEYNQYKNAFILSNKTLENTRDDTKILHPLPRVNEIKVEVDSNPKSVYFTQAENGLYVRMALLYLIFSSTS

Key:
PfATC [1] = biological target: T1, PfATC (Plasmodium falciparum, UniProt A0A5K1K910); conditions: read-out: IC50 against PfATC; in vitro enzyme assay, PfATC 50 nM, n = 3
PfATC [2] = biological target: T1, PfATC; assay: Differential scanning fluorimetry (DSF); type: binding; conditions: PfATC 5 µM
Text: 464Data collection, processing and refinement. All the diffraction data sets were collected using
465synchrotron radiation wavelength 1.033200 Å at DESY beamline P11. The data collected for
466PfATC crystals grown in presence of fragments and compounds were processed using XDSAPP 25
467and Aimless 26, and the structures were solved and initially refined using the DIMPLE pipeline
468within CCP4 suite 26 with coordinates of the unliganded PfATC (5ILQ) as a starting model. The
469final refinement included manual rebuilding in coot 27 and Refmac5 28. The resulting crystal
470structures were deposited in PDB 29. Data collection and processing statistics are show in Table
472Differential Scanning Fluorimetry (DSF). The purified PfATC was incubate with 5000 × Sypro
473Orange (Invitrogen) and dilution it to 1:400 stock of dye in assay buffer (50 mM Tris-HCl pH =8.0
474and 300 mM NaCl). Each reaction consisted of 2 µL compound (10 mM stock in 100% DMSO), 5
475µL PfATC-Sypro orange mixture and 43 µL assay buffer. Final protein assay concentration was
4765µM, final DMSO concentration war […]. After incubation for 20 min at 20 ℃, the samples
477were hated from 25℃ to 95℃ at a rate of 0.5 ℃ min -1. The inflection points of the melting curves
478were determined using BioRad CSV 96 control software and processed & plotted by GraphPad.
479Microscale Thermophoresis (MST). […]

Compound | IC50 (PfATC [1]) | ΔTM of PfATC (thermal stabilization) (PfATC [2])
NCCc1ccccc1 | 150000 nM | 
c1ccc2[nH]ccc2c1 | 145000 nM | 
NOCc1ccccc1 | 125000 nM | 
NCc1ccc(Cl)cc1 | 10000 nM | 2.0 °C
